The record followed here is PMC6117091, “The C. difficile clnRAB operon initiates adaptations to the host environment in response to LL-37” (PLoS Pathogens, 2018).

In this data set the target is T1, His-ClnR (Clostridioides difficile 630 (630Δerm)?) (UniProt Q186H1).
T1 sequence: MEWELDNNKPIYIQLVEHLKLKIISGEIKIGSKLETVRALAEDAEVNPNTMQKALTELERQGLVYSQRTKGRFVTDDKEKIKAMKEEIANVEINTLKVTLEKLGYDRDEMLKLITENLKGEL
The data set is described as follows: EMSA. The following applies: 10 mM Tris pH 7.4, 10 mM MgCl2, 100 mM KCl, 7.5% glycerol, 2 mM DTT, 50 ng salmon sperm DNA, 10 ng labeled DNA, 30 min at 37 C; apparent Kd from cooperative …. A general note: Mobility shift assays separate free from complexed probe on a gel.

Regarding “TATATCGATATGATTCCCTTTTGTTATACTTTTATTATAGAGTTTATATTTTATAGTAACAACTTTAAGAAACCGTTTCTATGTCACTTTAGATAATGACATTTGTCATTTTAGTTTTTGTTTAATTTTATTTATGTAGTATTTTGGAG (double strand) [PmtlA]”, the binding entry is “binds”.
